Here are results for one substance from patent publication US20020076693A1, “Novel cell surface receptor for HIV retroviruses, therapeutic and diagnostic uses” (priority 1997, published 2002).

For data set [1] the following is noted: i.v.; for effects on the behaviour of rats / innocuity: up to 3 mg/kg.
In data set [2] the target is gp120 binding to the V3 loop-BPs. The settings on record: read-out: IC50 for the inhibition of gp120 binding to the V3 loop-BPs; TASP constructs, gp120 HIV-1 Lai, biosensor.

pIC50: −log10 of the molar value. Where “and” joins values, the source holds several entries; their conditions need not be identical. Identical values can stand only once. Like-named read-outs stand apart in the source and are kept apart here.

For 5[Kψ(CH2N)PR]-TASP, the “effect on examination of sacrificed rats” value in data set [1] (sacrificed at 48 hours) is “No apparent effect”. Also, the “effects on the behaviour of rats / innocuity” value in data set [1] is listed as “No apparent effects”; in data set [1] (listed as 5[Kψ (CH2N)PR]-TASP), “total inoccuity”. Besides, the pIC50 (in general, the negative decadic logarithm of the IC50, by convention in mol/L) in data set [2] is ~7.60 and 7.60.
